Experimental data taken from PMC6669600 (Viruses, 2019).

What follows are compounds tested on HIV-1NL4-3 pseudovirus. Settings: HIV-1NL4-3(D36G) pseudovirus entry, TZM-bl cells; triplicate, repeated three times, mean ± SD; SD; read-out: Inhibition (IC50, nM) NL4-3 entry.
Type: cell-based

Compound | IC50 [nM]
CC[C@H](C)[C@H](NC(=O)[C@H](CC(C)C)NC(=O)[C@H](CCC(=O)O)NC(=O)[C@H](CCC(=O)O)NC(=O)[C@@H](NC(=O)[C@H](CCCCN)NC(=O)[C@H](CCCCN)NC(=O)[C@@H](NC(=O)[C@H](Cc1ccc(O)cc1)NC(=O)[C@H](CCC(=O)O)NC(=O)[C@H](CCC(=O)O)NC(=O)[C@@H](NC(=O)[C@H](CCCCN)NC(=O)[C@H](CCCCN)NC(=O)[C@H](CC(=O)O)NC(=O)[C@H](Cc1c[nH]c2ccccc12)NC(=O)[C@H](CCC(=O)O)NC(=O)[C@H](CCC(=O)O)NC(=O)[C@H](Cc1c[nH]c2ccccc12)NC(=O)[C@@H](NC(=O)[C@H](CCSC)NC(C)=O)[C@@H](C)O)[C@@H](C)CC)[C@@H](C)O)[C@@H](C)CC)C(N)=O [MT-SC19EK] | 5 ± 0.9
CC[C@H](C)[C@H](NC(=O)[C@H](CC(C)C)NC(=O)[C@H](CCC(=O)O)NC(=O)[C@H](CCC(=O)O)NC(=O)[C@@H](NC(=O)[C@H](CCCCN)NC(=O)[C@H](CCCCN)NC(=O)[C@@H](NC(=O)[C@H](Cc1ccc(O)cc1)NC(=O)[C@H](CCC(=O)O)NC(=O)[C@H](CCC(=O)O)NC(=O)[C@@H](NC(=O)[C@H](CCCCN)NC(=O)[C@H](CCCCN)NC(=O)[C@H](CC(=O)O)NC(=O)[C@H](Cc1c[nH]c2ccccc12)NC(=O)[C@H](CCC(=O)O)NC(=O)[C@H](CCC(=O)O)NC(=O)[C@H](Cc1c[nH]c2ccccc12)NC(=O)[C@@H](NC(=O)[C@H](CCSC)NC(C)=O)[C@@H](C)O)[C@@H](C)CC)[C@@H](C)O)[C@@H](C)CC)C(=O)N[C@@H](CCCCN)C(N)=O [MT-SC20EK] | 3.7 ± 0.5
CC[C@H](C)[C@H](NC(=O)[C@H](CC(C)C)NC(=O)[C@H](CCC(=O)O)NC(=O)[C@H](CCC(=O)O)NC(=O)[C@@H](NC(=O)[C@H](CCCCN)NC(=O)[C@H](CCCCN)NC(=O)[C@@H](NC(=O)[C@H](Cc1ccc(O)cc1)NC(=O)[C@H](CCC(=O)O)NC(=O)[C@H](CCC(=O)O)NC(=O)[C@@H](NC(=O)[C@H](CCCCN)NC(=O)[C@H](CCCCN)NC(=O)[C@H](CC(=O)O)NC(=O)[C@H](Cc1c[nH]c2ccccc12)NC(=O)[C@H](CCC(=O)O)NC(=O)[C@H](CCC(=O)O)NC(=O)[C@H](Cc1c[nH]c2ccccc12)NC(=O)[C@@H](NC(=O)[C@H](CCSC)NC(C)=O)[C@@H](C)O)[C@@H](C)CC)[C@@H](C)O)[C@@H](C)CC)C(=O)N[C@@H](CCCCN)C(=O)N[C@@H](CCCCN)C(N)=O [MT-SC21EK] | 3.8 ± 0.4
CC[C@H](C)[C@H](NC(=O)[C@H](CC(C)C)NC(=O)[C@H](CCC(=O)O)NC(=O)[C@H](CCC(=O)O)NC(=O)[C@@H](NC(=O)[C@H](CCCCN)NC(=O)[C@H](CCCCN)NC(=O)[C@@H](NC(=O)[C@H](Cc1ccc(O)cc1)NC(=O)[C@H](CCC(=O)O)NC(=O)[C@H](CCC(=O)O)NC(=O)[C@@H](NC(=O)[C@H](CCCCN)NC(=O)[C@H](CCCCN)NC(=O)[C@H](CC(=O)O)NC(=O)[C@H](Cc1c[nH]c2ccccc12)NC(=O)[C@H](CCC(=O)O)NC(=O)[C@H](CCC(=O)O)NC(=O)[C@H](Cc1c[nH]c2ccccc12)NC(=O)[C@@H](NC(=O)[C@H](CCSC)NC(C)=O)[C@@H](C)O)[C@@H](C)CC)[C@@H](C)O)[C@@H](C)CC)C(=O)N[C@@H](CCCCN)C(=O)N[C@@H](CCCCN)C(=O)N[C@@H](CO)C(N)=O [MT-SC22EK] | 2.4 ± 0.3
CC[C@H](C)[C@H](NC(=O)[C@H](CC(C)C)NC(=O)[C@H](CCC(=O)O)NC(=O)[C@H](CCC(=O)O)NC(=O)[C@@H](NC(=O)[C@H](CCCCN)NC(=O)[C@H](CCCCN)NC(=O)[C@@H](NC(=O)[C@H](Cc1ccc(O)cc1)NC(=O)[C@H](CCC(=O)O)NC(=O)[C@H](CCC(=O)O)NC(=O)[C@@H](NC(=O)[C@H](CCCCN)NC(=O)[C@H](CCCCN)NC(=O)[C@H](CC(=O)O)NC(=O)[C@H](Cc1c[nH]c2ccccc12)NC(=O)[C@H](CCC(=O)O)NC(=O)[C@H](CCC(=O)O)NC(=O)[C@H](Cc1c[nH]c2ccccc12)NC(=O)[C@@H](NC(=O)[C@H](CCSC)NC(C)=O)[C@@H](C)O)[C@@H](C)CC)[C@@H](C)O)[C@@H](C)CC)C(=O)N[C@@H](CCCCN)C(=O)N[C@@H](CCCCN)C(=O)N[C@@H](CO)C(=O)N[C@@H](CCC(=O)O)C(N)=O [MT-SC23EK] | 2.1 ± 0.2
CC[C@H](C)[C@H](NC(=O)[C@H](CC(C)C)NC(=O)[C@H](CCC(=O)O)NC(=O)[C@H](CCC(=O)O)NC(=O)[C@@H](NC(=O)[C@H](CCCCN)NC(=O)[C@H](CCCCN)NC(=O)[C@@H](NC(=O)[C@H](Cc1ccc(O)cc1)NC(=O)[C@H](CCC(=O)O)NC(=O)[C@H](CCC(=O)O)NC(=O)[C@@H](NC(=O)[C@H](CCCCN)NC(=O)[C@H](CCCCN)NC(=O)[C@H](CC(=O)O)NC(=O)[C@H](Cc1c[nH]c2ccccc12)NC(=O)[C@H](CCC(=O)O)NC(=O)[C@H](CCC(=O)O)NC(=O)[C@H](Cc1c[nH]c2ccccc12)NC(=O)[C@@H](NC(=O)[C@H](CCSC)NC(C)=O)[C@@H](C)O)[C@@H](C)CC)[C@@H](C)O)[C@@H](C)CC)C(=O)N[C@@H](CCCCN)C(=O)N[C@@H](CCCCN)C(=O)N[C@@H](CO)C(=O)N[C@@H](CCC(=O)O)C(=O)N[C@@H](CCC(=O)O)C(N)=O [MT-SC24EK] | 2.8 ± 0.2
CC[C@H](C)[C@H](NC(=O)[C@H](CC(C)C)NC(=O)[C@H](CCC(=O)O)NC(=O)[C@H](CCC(=O)O)NC(=O)[C@@H](NC(=O)[C@H](CCCCN)NC(=O)[C@H](CCCCN)NC(=O)[C@@H](NC(=O)[C@H](Cc1ccc(O)cc1)NC(=O)[C@H](CCC(=O)O)NC(=O)[C@H](CCC(=O)O)NC(=O)[C@@H](NC(=O)[C@H](CCCCN)NC(=O)[C@H](CCCCN)NC(=O)[C@H](CC(=O)O)NC(=O)[C@H](Cc1c[nH]c2ccccc12)NC(=O)[C@H](CCC(=O)O)NC(=O)[C@H](CCC(=O)O)NC(=O)[C@H](Cc1c[nH]c2ccccc12)NC(=O)[C@@H](NC(=O)[C@H](CCSC)NC(C)=O)[C@@H](C)O)[C@@H](C)CC)[C@@H](C)O)[C@@H](C)CC)C(=O)N[C@@H](CCCCN)C(=O)N[C@@H](CCCCN)C(=O)N[C@@H](CO)C(=O)N[C@@H](CCC(=O)O)C(=O)N[C@@H](CCC(=O)O)C(=O)N[C@@H](CCC(N)=O)C(N)=O [MT-SC25EK] | 1.9 ± 0.2
CC[C@H](C)[C@H](NC(=O)[C@H](CC(C)C)NC(=O)[C@H](CCC(=O)O)NC(=O)[C@H](CCC(=O)O)NC(=O)[C@@H](NC(=O)[C@H](CCCCN)NC(=O)[C@H](CCCCN)NC(=O)[C@@H](NC(=O)[C@H](Cc1ccc(O)cc1)NC(=O)[C@H](CCC(=O)O)NC(=O)[C@H](CCC(=O)O)NC(=O)[C@@H](NC(=O)[C@H](CCCCN)NC(=O)[C@H](CCCCN)NC(=O)[C@H](CC(=O)O)NC(=O)[C@H](Cc1c[nH]c2ccccc12)NC(=O)[C@H](CCC(=O)O)NC(=O)[C@H](CCC(=O)O)NC(=O)[C@H](Cc1c[nH]c2ccccc12)NC(=O)[C@@H](NC(=O)[C@H](CCSC)NC(C)=O)[C@@H](C)O)[C@@H](C)CC)[C@@H](C)O)[C@@H](C)CC)C(=O)N[C@@H](CCCCN)C(=O)N[C@@H](CCCCN)C(=O)N[C@@H](CO)C(=O)N[C@@H](CCC(=O)O)C(=O)N[C@@H](CCC(=O)O)C(=O)N[C@@H](CCC(N)=O)C(=O)N[C@@H](CCC(N)=O)C(N)=O [MT-SC26EK] | 1.6 ± 0.2
CC[C@H](C)[C@H](NC(=O)[C@H](CC(C)C)NC(=O)[C@H](CCC(=O)O)NC(=O)[C@H](CCC(=O)O)NC(=O)[C@@H](NC(=O)[C@H](CCCCN)NC(=O)[C@H](CCCCN)NC(=O)[C@@H](NC(=O)[C@H](Cc1ccc(O)cc1)NC(=O)[C@H](CCC(=O)O)NC(=O)[C@H](CCC(=O)O)NC(=O)[C@@H](NC(=O)[C@H](CCCCN)NC(=O)[C@H](CCCCN)NC(=O)[C@H](CC(=O)O)NC(=O)[C@H](Cc1c[nH]c2ccccc12)NC(=O)[C@H](CCC(=O)O)NC(=O)[C@H](CCC(=O)O)NC(=O)[C@H](Cc1c[nH]c2ccccc12)NC(=O)[C@@H](NC(=O)[C@H](CCSC)NC(C)=O)[C@@H](C)O)[C@@H](C)CC)[C@@H](C)O)[C@@H](C)CC)C(=O)N[C@@H](CCCCN)C(=O)N[C@@H](CCCCN)C(=O)N[C@@H](CO)C(=O)N[C@@H](CCC(=O)O)C(=O)N[C@@H](CCC(=O)O)C(=O)N[C@@H](CCC(N)=O)C(=O)N[C@@H](CCC(N)=O)C(=O)N[C@@H](CCCCN)C(N)=O [MT-SC27EK] | 1.1 ± 0.2
CC[C@H](C)[C@H](NC(=O)[C@H](CC(C)C)NC(=O)[C@H](CCC(=O)O)NC(=O)[C@H](CCC(=O)O)NC(=O)[C@@H](NC(=O)[C@H](CCCCN)NC(=O)[C@H](CCCCN)NC(=O)[C@@H](NC(=O)[C@H](Cc1ccc(O)cc1)NC(=O)[C@H](CCC(=O)O)NC(=O)[C@H](CCC(=O)O)NC(=O)[C@@H](NC(=O)[C@H](CCCCN)NC(=O)[C@H](CCCCN)NC(=O)[C@H](CC(=O)O)NC(=O)[C@H](Cc1c[nH]c2ccccc12)NC(=O)[C@H](CCC(=O)O)NC(=O)[C@H](CCC(=O)O)NC(=O)[C@H](Cc1c[nH]c2ccccc12)NC(=O)[C@@H](NC(=O)[C@H](CCSC)NC(C)=O)[C@@H](C)O)[C@@H](C)CC)[C@@H](C)O)[C@@H](C)CC)C(=O)N[C@@H](CCCCN)C(=O)N[C@@H](CCCCN)C(=O)N[C@@H](CO)C(=O)N[C@@H](CCC(=O)O)C(=O)N[C@@H](CCC(=O)O)C(=O)N[C@@H](CCC(N)=O)C(=O)N[C@@H](CCC(N)=O)C(=O)N[C@@H](CCCCN)C(=O)N[C@@H](CCCCN)C(N)=O [MT-SC28EK] | 1.3 ± 0.2

Same assay, conditions: HIV-1NL4-3(D36G) pseudovirus entry, TZM-bl cells; triplicate, repeated three times, mean ± SD; read-out: Inhibition (IC50, nM) NL4-3 entry

Compound | IC50 [nM]
CC[C@H](C)[C@H](NC(=O)[C@H](CCCCN)NC(=O)[C@H](CCCCN)NC(=O)[C@H](CC(=O)O)NC(=O)[C@H](Cc1c[nH]c2ccccc12)NC(=O)[C@H](CCC(=O)O)NC(=O)[C@H](CCC(=O)O)NC(=O)[C@H](Cc1c[nH]c2ccccc12)NC(=O)[C@@H](NC(=O)[C@H](CCSC)NC(C)=O)[C@@H](C)O)C(=O)N[C@@H](CCC(=O)O)C(=O)N[C@@H](CCC(=O)O)C(=O)N[C@@H](Cc1ccc(O)cc1)C(=O)N[C@H](C(=O)N[C@@H](CCCCN)C(=O)N[C@@H](CCCCN)C(=O)N[C@H](C(=O)N[C@@H](CCC(=O)O)C(=O)N[C@@H](CCC(=O)O)C(=O)N[C@@H](CC(C)C)C(N)=O)[C@@H](C)CC)[C@@H](C)O [MT-SC18EK] | > 2000
